Experimental data from publication PMC4066452 (Archives of biochemistry and biophysics, 2014).

What was measured:
Experiment in all cases: purified protein
Conditions in all cases: pH 7.5; 25.0 °C
[1] = system: Nc1ncnc2c1ncn2[C@@H]1O[C@H](COP(=O)(O)OP(=O)(O)OP(=O)(O)O)[C@@H](O)[C@H]1O
[2] = system: CC(C)(COP(=O)(O)OP(=O)(O)OC[C@H]1O[C@@H](n2cnc3c(N)ncnc32)[C@H](O)[C@@H]1OP(=O)(O)O)[C@@H](O)C(=O)NCCC(=O)NCCS
CC(=O)O = system: CC(=O)O

Substance “MtACS (Mycobacterium tuberculosis acetyl-CoA synthetase) (Mycobacterium tuberculosis H37Rv)” has a Km [1] of 79 ± 7 µM, a Km [2] of 125 ± 5 µM and a Km (CC(=O)O) of 55 ± 8 µM.
